Anti-infective test results gathered from many reports (values: NIAID ChemDB through PubChem).

Shared fields: tests on isolated targets; species: HIV-1; protein: Reverse transcriptase; measure: fold resistance

Two numbers with a dash give a range or band. Blank or dashed fields: not listed here. Lines come from different laboratories, so protocols vary. Fold resistance has wild type as its base.

structure,method,changes,strain,result
CCN1c2ncc(CCOc3ccc(CC(C)C(=O)O)c4ccccc34)cc2C(=O)N(C)c2ccc(Cl)nc21,nucleotide incorporation / radiometric,RT-Y188L,-,>10
CCc1ccc(-n2c(Br)nnc2SCC(=O)Nc2ccc(C(=O)NCC(O)CO)cc2Cl)c2ccccc12,nucleotide incorporation / radiometric,RT-Y188L,-,>2
CCN1c2ncc(CCOc3ccc(/C=C(\C)C(=O)O)c4ccccc34)cc2C(=O)N(C)c2ccc(Cl)nc21,nucleotide incorporation / radiometric,RT-K103N Y181C,-,1–10
CCc1ccc(-n2c(Br)nnc2SCC(=O)Nc2ccc(C(=O)NCCO)cc2Cl)c2ccccc12,nucleotide incorporation / radiometric,RT-Y188L,-,>1
Cc1c(Cc2ccccc2)nc(NCCCCN)[nH]c1=O,-,RT-L100I,-,>10.3
CCN1c2ncc(CCOc3ccc(C(=O)NN)cc3C)cc2C(=O)Nc2c(C)ccnc21,nucleotide incorporation / radiometric,RT-K103N Y181C,IIIB,>1
CCc1cc(CCc2nc3ccccc3o2)c(=O)[nH]c1C,nucleotide incorporation,RT-K103N,-,15.9
CCN1c2ncc(CCOc3ccc(CCC(=O)O)c4ccccc34)cc2C(=O)Nc2c(C)cc(Cl)nc21,nucleotide incorporation / radiometric,RT-K103N Y181C,-,1–10
Cc1ccc2c(C)ccc(-n3c(Br)nnc3SCC(=O)Nc3ccc(S(N)(=O)=O)cc3Br)c2c1,nucleotide incorporation / radiometric,RT-Y188L,-,>1
CCN1c2ncc(CCOc3ccc(C(C)CC(=O)O)c4ccccc34)cc2C(=O)N(C)c2cccnc21,nucleotide incorporation / radiometric,RT-V106A,-,>10
O=c1cc(Cc2ccccc2)nc(SCCCCO)[nH]1,-,RT-V179D,-,1.39
CCN1c2ncc(CCOc3ccc(-c4csc(N)n4)cc3C)cc2C(=O)N(C)c2cccnc21,nucleotide incorporation / radiometric,RT-K103N Y181C,IIIB,1
Nc1nc2c(ncn2[C@H]2CC[C@@H](COP(=O)(O)OP(=O)(O)OP(=O)(O)O)O2)c(=O)[nH]1,nucleotide incorporation,RT-Y188L,-,0.5
Cc1ccc2c(C)cc(C)c(-n3c(SCC(=O)Nc4ccc(S(N)(=O)=O)cc4C)nnc3C(F)F)c2n1,nucleotide incorporation / radiometric,RT-Y181C,-,>2
O=c1cc(Cc2ccccc2)nc(NCCCCO)[nH]1,-,RT-Y181L,-,>2.44
NS(=O)(=O)c1ccc(NC(=O)CSc2nnc(Cl)n2-c2ccc(C3CC3)c3ccccc23)c(Cl)c1,nucleotide incorporation / radiometric,RT-Y188L,-,>2
CCN1c2ncc(CCOc3ccc(-c4cc(CC(=O)O)ccc4OC)cc3C)cc2C(=O)N(C)c2cccnc21,nucleotide incorporation / radiometric,RT-K103N Y181C,IIIB,>1
CCN1c2nc(C(F)(F)F)ccc2NC(=O)c2cc(CCOc3cc[n+]([O-])c4ccccc34)cnc21,nucleotide incorporation / radiometric,RT-V106A,-,47
CCN1c2ncc(CCOc3ccc(NC(=O)CC(C)(C)C(=O)O)cc3C)cc2C(=O)N(C)c2cccnc21,nucleotide incorporation / radiometric,RT-K103N Y181C,IIIB,>2
Cc1cc(S(N)(=O)=O)ccc1NC(=O)CSc1nnc(CF)n1-c1ccc(C)c2c1CCCC2,nucleotide incorporation / radiometric,RT-Y188L,-,>2
CCN1c2ncc(CCOc3ccc(-c4csc(C(=O)O)c4)cc3C)cc2C(=O)N(C)c2cccnc21,nucleotide incorporation / radiometric,RT-K103N Y181C,IIIB,1
Cc1ccc(-n2c(SCC(=O)Nc3ccc(S(=O)(=O)NCCN4CCOCC4)cc3Cl)nnc2C(F)F)c2c1CCCC2,nucleotide incorporation / radiometric,RT-Y188L,-,>2

The last 2 rows once more:

structure,method,changes,strain,result
CCN1c2ncc(CCOc3ccc(-c4csc(C(=O)O)c4)cc3C)cc2C(=O)N(C)c2cccnc21,nucleotide incorporation / radiometric,RT-K103N Y181C,IIIB,1
Cc1ccc(-n2c(SCC(=O)Nc3ccc(S(=O)(=O)NCCN4CCOCC4)cc3Cl)nnc2C(F)F)c2c1CCCC2,nucleotide incorporation / radiometric,RT-Y188L,-,>2